Data as given in PubChem BioAssay AID624099 (ICCB-Longwood, 2012)
Purpose: 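Human genes that papillomavirus E2 requires to repress the HPV18 LCR promoter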 (primary screen). Cells: human C33A cervical carcinoma cells (HPV-negative) stably expressing BPV1 E2 and an HPV18 LCR luciferase reporter. Reagent: siRNA pool against human genes, 40 nM. Timing: 72 h. Read-out: 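HPV18 LCR reporter light per well, converted to plate-wise z-scores that exclude control wells, and averaged over triplicate plates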. Direction: mean z-score and z-score: higher = stronger reporter signal, weaker E2 silencing. Call rule: 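Mean z ≥ 2 together with z ≥ 2 in two or more of the three replicates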.
The whole screen tested about 21,000 reagents; this is an unselected part. 497 of them (2.4%) were called active. 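Higher z means weaker E2 silencing; only reporter increases were scored, and knock-downs that hurt cell survival may mask genuine repressor factors.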 A number with no mark means an inactive call.

| target gene | mean z-score | z-score, replicate A | z-score, replicate B | z-score, replicate C |
| --- | --- | --- | --- | --- |
| ERC1 | 0.23 | 0.24 | 0.11 | 0.33 |
| CNOT6L | 1.13 | 1.05 | 1.04 | 1.3 |
| SCAF4 | 0.5 | 0.34 | 0.56 | 0.6 |
| OR10K2 | 0.07 | 0.02 | 0.14 | 0.06 |
| CHCHD2P9 | 0.52 | 0.53 | 0.39 | 0.65 |
| CT47A11 | -0.24 | -0.22 | 0 | -0.49 |
| LINC02153 | -0.25 | -0.24 | -0.03 | -0.49 |
| IL6ST | -1.15 | -1.19 | -1.16 | -1.1 |
| DPP9 | -0.19 | -0.34 | -0.09 | -0.15 |
| PIAS3 | 0.45 | 0.75 | 0.43 | 0.18 |
| CSN1S2AP | -1.16 | -1.24 | -1.11 | -1.12 |
| KCNMB1 | 0.67 | 0.5 | 0.76 | 0.75 |
| CFHR4 | 1.19 | 0.85 | 1.29 | 1.42 |
| LOC388297 (retired record) | 0.13 | 0.3 | -0.13 | 0.21 |
| SSBP1 | 0.25 | 0.61 | 0.19 | -0.06 |
| ETAA1 | 1.87 | 1.72 | 2.22 | 1.67 |
| GOSR2 | -0.75 | -0.67 | -0.62 | -0.94 |
| TMPRSS6 | 0.38 | 0.4 | 0.11 | 0.62 |
| OPCML | 0.52 | 0.79 | 0.37 | 0.4 |
| CCDC186 | 0.73 | 0.81 | 1.21 | 0.16 |
| LOC400733 (retired record) | -1.31 | -1.1 | -1.13 | -1.69 |
| STX3 | -0.2 | 0.14 | -0.3 | -0.44 |
| SOCS5 | -0.29 | 0.08 | -0.7 | -0.27 |
| HS3ST3A1 | 1.35 | 1.26 | 1.66 | 1.13 |
| PBRM1 | 0.27 | 0.63 | 0.58 | -0.39 |
| FZD10 | 0.45 | 0.54 | 0.46 | 0.34 |
| SLCO2B1 | 1.15 | 1.1 | 1.1 | 1.24 |
| TMEM242 | 0.54 | 0.29 | 0.33 | 0.98 |
| OVCH1 | -0.52 | -0.64 | -0.72 | -0.2 |
| CLIC5 | 0.46 | 0.49 | 0.24 | 0.64 |
| OR10AG1 | -0.35 | -0.14 | -0.85 | -0.06 |
| RCN3 | 0.68 | 0.58 | 1.34 | 0.12 |
| NUAK1 | -0.11 | -0.03 | -0.21 | -0.09 |
| CIMIP1 | -1.28 | -1.32 | -1.24 | -1.28 |
| TOR3A | 0.71 | 0.59 | 0.68 | 0.85 |
| OR1A2 | -0.24 | -0.35 | -0.12 | -0.26 |
| RLIM | 0.04 | -0.35 | 0.04 | 0.42 |
| OR4F4 | 0.38 | 0.8 | 0.26 | 0.08 |
| TMEM257 (retired record) | 0.45 | 0.43 | 0.46 | 0.47 |
| MYRFL | -0.39 | 0.04 | -0.82 | -0.37 |
| SIGLEC16 | -1.16 | -1.24 | -1.11 | -1.11 |
| MS4A10 | 0.44 | 0.79 | 0.27 | 0.24 |
| TDRD6 | -0.34 | -0.4 | -0.01 | -0.62 |
| C1QB | -0.13 | -0.16 | -0.11 | -0.13 |
| SUPT6H | -2.21 | -2.26 | -2.1 | -2.27 |
| RUSF1 | 0.25 | 0.05 | 0.08 | 0.62 |
| SPMIP4 | -0.48 | -0.39 | -0.58 | -0.47 |
| ACHE | 1.11 | 0.86 | 1.54 | 0.94 |
| TEC | 0.01 | -0.1 | -0.29 | 0.44 |
| LINC02910 | -0.33 | -0.54 | -0.28 | -0.16 |
| MT-ATP6 | -0.23 | -0.71 | 0.16 | -0.13 |
| MYL4 | 0.12 | 0.24 | 0.26 | -0.15 |
| KMT2B | 0.43 | 0.35 | 0.4 | 0.53 |
| IL38 | 1.23 | 1.23 | 1.21 | 1.24 |
| ZBTB21 | 1.92 | 2.25 | 1.9 | 1.59 |
| PINX1 | 0.52 | 0.99 | 0.45 | 0.11 |
| KLF3-AS1 | -0.29 | -0.13 | -0.46 | -0.27 |
| LOC390906 (retired record) | 0.28 | 0.27 | 0.64 | -0.06 |
| ZIM3 | -1.46 | -1.22 | -1.36 | -1.79 |
| ABCC3 | 0.26 | 0.2 | 0.15 | 0.44 |
| KLK7 | 0.07 | 0.24 | 0.12 | -0.16 |
| LOC389413 (retired record) | -0.45 | -0.28 | -0.57 | -0.51 |
| GIPC2 | 1.57 | 1.77 | 1.59 | 1.35 |
| TACC3 | -0.14 | -0.18 | -0.11 | -0.13 |
| RC3H2 | -1.11 | -1.02 | -1.12 | -1.2 |
| WDR3 | -1.04 | -0.87 | -0.93 | -1.31 |
| CETN3 | -1.09 | -1.47 | -0.92 | -0.88 |
| EBLN3P | 0.05 | 0.16 | 0.3 | -0.31 |
| QSOX2 | -0.31 | -0.48 | 0.33 | -0.77 |
| AP4M1 | 0.86 | 0.82 | 0.94 | 0.8 |
| CCDC14 | -1.19 | -1.13 | -1.05 | -1.39 |
| PCDHGB7 | -0.54 | -0.88 | -0.35 | -0.37 |
| FLT4 | -0.52 | -0.43 | -0.58 | -0.54 |

6 entries from above, set out differently.
{"target gene": "LOC390906 (retired record)", "mean z-score": 0.28, "z-score, replicate A": 0.27, "z-score, replicate B": 0.64, "z-score, replicate C": -0.06}
{"target gene": "ZIM3", "mean z-score": -1.46, "z-score, replicate A": -1.22, "z-score, replicate B": -1.36, "z-score, replicate C": -1.79}
{"target gene": "ABCC3", "mean z-score": 0.26, "z-score, replicate A": 0.2, "z-score, replicate B": 0.15, "z-score, replicate C": 0.44}
{"target gene": "KLK7", "mean z-score": 0.07, "z-score, replicate A": 0.24, "z-score, replicate B": 0.12, "z-score, replicate C": -0.16}
{"target gene": "LOC389413 (retired record)", "mean z-score": -0.45, "z-score, replicate A": -0.28, "z-score, replicate B": -0.57, "z-score, replicate C": -0.51}
{"target gene": "GIPC2", "mean z-score": 1.57, "z-score, replicate A": 1.77, "z-score, replicate B": 1.59, "z-score, replicate C": 1.35}
